{"source": "PubChem BioAssay AID504761 (Drosophila RNAi Screening Center, 2011)", "test": "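Genome-wide fly cell screen for genes dengue virus requires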 (primary screen)", "system": "D.Mel-2 cells from Drosophila", "reagent": "long dsRNA against Drosophila genes", "conditions": "infection with dengue virus type 2; dose and infection time not stated", "detection": "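Cells stained for dengue envelope protein and imaged; percent of infected cells per well on duplicate plates, ranked by infection, with stained nuclei counted for cell number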", "direction": "infection score: higher = more virus-infected cells; cell count: higher = more cells in the well", "hit rule": "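Low infection ranks in the two replicates (chance level up to 0.065) followed by a retest with a 1.5-fold or larger significant decrease, p below 0.05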", "meaning of the calls": "active = confirmed: knock-down lowers infection; inactive = not picked or not confirmed", "note": "In all, the deposit lists about 22,000 reagents; below is a random part of those with a known target gene and a result. In the full data, 116 (0.52%) were called active. 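Calls depend on retest data that are not deposited; infection was ranked per plate without normalising between plates; the unit of the infection score is not given.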 Raw values are not corrected between plates. Names joined by + are all predicted targets of the reagent. Not stated in the record: the amount of reagent, the time to read-out."}
{"gene": "kappaB-Ras + CG30503", "PubChem SID": "SID104186411", "infection score, replicate 1": 10.1, "infection score, replicate 2": 5.72, "cell count, replicate 1": 6432, "cell count, replicate 2": 6542, "call": "inactive"}
{"gene": "kappaB-Ras + CG30503", "PubChem SID": "SID104187428", "infection score, replicate 1": 9.05, "infection score, replicate 2": 5.44, "cell count, replicate 1": 6453, "cell count, replicate 2": 6878, "call": "inactive"}
{"gene": "kappaB-Ras + CG30503", "PubChem SID": "SID104204082", "infection score, replicate 1": 4.41, "infection score, replicate 2": 2.75, "cell count, replicate 1": 5960, "cell count, replicate 2": 5817, "call": "inactive"}
{"gene": "CG4069", "PubChem SID": "SID104190188", "infection score, replicate 1": 10.6, "infection score, replicate 2": 17.3, "cell count, replicate 1": 6717, "cell count, replicate 2": 6487, "call": "inactive"}
{"gene": "CG31612", "PubChem SID": "SID104183489", "infection score, replicate 1": 1.41, "infection score, replicate 2": 1.91, "cell count, replicate 1": 6191, "cell count, replicate 2": 6792, "call": "inactive"}
{"gene": "CG31612", "PubChem SID": "SID104183490", "infection score, replicate 1": 2.42, "infection score, replicate 2": 8.28, "cell count, replicate 1": 6699, "cell count, replicate 2": 6739, "call": "inactive"}
{"gene": "Ance-4", "PubChem SID": "SID104186896", "infection score, replicate 1": 7.26, "infection score, replicate 2": 14.4, "cell count, replicate 1": 5826, "cell count, replicate 2": 5371, "call": "inactive"}
{"gene": "sn (singed)", "PubChem SID": "SID104198626", "infection score, replicate 1": 5.38, "infection score, replicate 2": 1.63, "cell count, replicate 1": 6277, "cell count, replicate 2": 6461, "call": "inactive"}
{"gene": "sn (singed)", "PubChem SID": "SID104206871", "infection score, replicate 1": 13.9, "infection score, replicate 2": 1.26, "cell count, replicate 1": 2672, "cell count, replicate 2": 636, "call": "inactive"}
{"gene": "Bro", "PubChem SID": "SID104187941", "infection score, replicate 1": 2.82, "infection score, replicate 2": 3.62, "cell count, replicate 1": 5992, "cell count, replicate 2": 6276, "call": "inactive"}
{"gene": "Mgtor (Megator)", "PubChem SID": "SID104185750", "infection score, replicate 1": 13.5, "infection score, replicate 2": 12, "cell count, replicate 1": 2970, "cell count, replicate 2": 5410, "call": "inactive"}
{"gene": "caly (calypso)", "PubChem SID": "SID104186974", "infection score, replicate 1": 10.1, "infection score, replicate 2": 16.9, "cell count, replicate 1": 6330, "cell count, replicate 2": 6270, "call": "inactive"}
{"gene": "CG8654", "PubChem SID": "SID104187023", "cell count, replicate 1": 333, "cell count, replicate 2": 373, "call": "inactive"}

Next part, starting with the last 3 of the part before.
{"gene": "Mgtor (Megator)", "PubChem SID": "SID104185750", "infection score, replicate 1": 13.5, "infection score, replicate 2": 12, "cell count, replicate 1": 2970, "cell count, replicate 2": 5410, "call": "inactive"}
{"gene": "caly (calypso)", "PubChem SID": "SID104186974", "infection score, replicate 1": 10.1, "infection score, replicate 2": 16.9, "cell count, replicate 1": 6330, "cell count, replicate 2": 6270, "call": "inactive"}
{"gene": "CG8654", "PubChem SID": "SID104187023", "cell count, replicate 1": 333, "cell count, replicate 2": 373, "call": "inactive"}
{"gene": "cn (cinnabar)", "PubChem SID": "SID104187386", "infection score, replicate 1": 8.83, "infection score, replicate 2": 14.5, "cell count, replicate 1": 6095, "cell count, replicate 2": 5447, "call": "inactive"}
{"gene": "CG6712", "PubChem SID": "SID104182773", "infection score, replicate 1": 0.88, "infection score, replicate 2": 1.54, "cell count, replicate 1": 6488, "cell count, replicate 2": 6775, "call": "inactive"}
{"gene": "CG6712", "PubChem SID": "SID104201371", "infection score, replicate 1": 0.82, "infection score, replicate 2": 2.24, "cell count, replicate 1": 5701, "cell count, replicate 2": 5676, "call": "inactive"}
{"gene": "CG15646", "PubChem SID": "SID104199474", "infection score, replicate 1": 11.3, "infection score, replicate 2": 3.98, "cell count, replicate 1": 5153, "cell count, replicate 2": 6451, "call": "inactive"}
{"gene": "CG14448", "PubChem SID": "SID104191497", "infection score, replicate 1": 10.3, "infection score, replicate 2": 9.77, "cell count, replicate 1": 6741, "cell count, replicate 2": 6725, "call": "inactive"}
{"gene": "CG14448", "PubChem SID": "SID104208606", "infection score, replicate 1": 4.01, "infection score, replicate 2": 6.58, "cell count, replicate 1": 6166, "cell count, replicate 2": 5626, "call": "inactive"}
{"gene": "CG5641", "PubChem SID": "SID104195644", "infection score, replicate 1": 4.55, "infection score, replicate 2": 3.98, "cell count, replicate 1": 6794, "cell count, replicate 2": 6252, "call": "inactive"}
{"gene": "GstD9 (Glutathione S transferase D9)", "PubChem SID": "SID104193977", "infection score, replicate 1": 4.52, "infection score, replicate 2": 2.37, "cell count, replicate 1": 6770, "cell count, replicate 2": 6907, "call": "inactive"}
{"gene": "GstD9 (Glutathione S transferase D9)", "PubChem SID": "SID104203853", "infection score, replicate 1": 1.49, "infection score, replicate 2": 1.73, "cell count, replicate 1": 5969, "cell count, replicate 2": 6592, "call": "inactive"}
